Anti-infective test results gathered from many reports (values: NIAID ChemDB through PubChem).

Common to all: whole-cell or culture tests; species: Herpes simplex virus 1; read by: plaque count; read-out: inhibition

Percent inhibition refers to the dose given; in toxicity tests it is the harm to the cells. Conditions beyond the fields shown may differ between rows.

{"smiles": "CC1(C)S[C@@H]2[C@H](NC(=O)Cc3ccccc3)C(=O)N2[C@H]1C(=O)O", "dose": "500 µM", "cell line": "VERO", "value": "4%"}
{"smiles": "Nc1nc2c(ncn2COCCO)c(=O)[nH]1", "dose": "44 µM", "cell line": "VERO", "value": "92%"}
{"smiles": "O=C(O)P(=O)(O)O", "strain": "V8523", "dose": "500 µM", "cell line": "SIRC", "value": ">99.9%"}
{"smiles": "O=C(O)P(=O)(O)O", "dose": "12.5 µg/mL", "cell line": "GMK", "value": "46.4%"}
{"smiles": "NC(=S)N/N=C/c1cccnc1", "strain": "PH", "dose": "40 µM", "cell line": "VERO", "value": "5%"}
{"smiles": "Nn1c(Nc2ccccc2)nc2sc3c(c2c1=O)CCCC3", "dose": "0.3 µg/mL", "cell line": "VERO", "value": "30%"}
{"smiles": "NC(=S)N/N=C\\c1nccc2ccccc12", "strain": "PH", "dose": "40 µM", "cell line": "VERO", "value": "97%"}
{"smiles": "Cc1nn2c(=O)c3c4c(sc3nc2n1-c1ccccc1)CCCC4", "dose": "0.3 µg/mL", "cell line": "VERO", "value": "0%"}
{"smiles": "COC(=O)[C@H]1[C@H](O)[C@@H](C)[C@@H](O)[C@](C)(O)/C=C(\\C)C2=C3C(=C(C)C(=O)c4c(O)c(c(C)c(OC(C)=O)c43)NC(=O)/C(C)=C/C=C\\[C@@H](C)C(O)[C@@H](C)[C@H]1O)OCO2", "dose": "6.5 µM", "cell line": "CV", "value": "33.3%"}
{"smiles": "CC(=O)N[C@H]1[C@@H](O[C@@H]2O[C@H](C[C@@H](O)[C@H]3O[C@@H](n4ccc(=O)[nH]c4=O)[C@H](O)[C@@H]3O)[C@H](O)[C@H](O)[C@H]2NC(=O)/C=C/CC(C)C)O[C@H](CO)[C@@H](O)[C@@H]1O", "dose": "0.5 µg/mL", "cell line": "BSC-1", "value": "98.43%"}
{"smiles": "NNC(N)=S", "strain": "PH", "dose": "40 µM", "cell line": "VERO", "value": "95%"}
{"smiles": "COc1cc2c(cc1-c1cc3cc4ccoc4cc3oc1=O)OCO2", "strain": "KOS", "dose": "50 µg/mL", "cell line": "VERO", "value": "26.1%"}
{"smiles": "NC(=S)N/N=C/c1ccccn1", "strain": "PH", "dose": "40 µM", "cell line": "VERO", "value": "14%"}
{"smiles": "O=c1c2c3c(sc2nc(Nc2ccccc2)n1/N=C/c1ccc([N+](=O)[O-])cc1)CCCC3", "dose": "0.3 µg/mL", "cell line": "VERO", "value": "0%"}